# Reference: publication PMC5887915
# Target: HLA-A*0201 (alpha-chain refolded with beta2m)
# Test: circular dichroism thermal melting
substance,measurement,value
"LLW peptide ([…]), Yellow Fever virus Non-Structural protein 4b 214-222",Tm (melting temperature of the peptide-HLA complex),66.5 °C
